Compound potency records, mixed from different reports. Data source: NIAID ChemDB in PubChem.

Blank or dashed fields: not listed here. A number after MIC or MFC names an inhibition level or a share of isolates. ICn: concentration for n% inhibition. Inhibition is in % at the dose shown (toxicity tests: loss of growth or viability). MIC bound: limit read from a one-dose screen. Rows are shuffled and stem from different studies.

SMILES | test | species | strain | protein | read by | measure | dose | value
O=C(N/N=C/c1cc(Cl)ccc1O)C(=O)N/N=C/c1cc(Cl)ccc1O | culture | Mycobacterium tuberculosis | H37Rv | - | BACTEC | inhibition | 12.5 µg/mL | 24%
Cc1ccccc1-c1cncc(N2CCN(c3ccncc3)CC2)n1 | target | Cytomegalovirus | - | UL97 kinase | - | IC50 | - | <100 µM
Cn1c(=O)nc(N)n(NC(=O)CCl)c1=O | culture | Mycobacterium tuberculosis | H37Rv | - | BACTEC | MIC | - | ≥12.5 µg/mL
CC(=O)c1cccc(-c2cncc(N3CCN(c4cccc(C(F)(F)F)c4)CC3)n2)c1 | target | Cytomegalovirus | - | UL97 kinase | - | IC50 | - | <100 µM
COc1cc2c(c3c1c(=O)c1ccc(F)cc1n3C)C=CC(C)(C)O2 | culture | Mycobacterium tuberculosis | H37Rv | - | BACTEC | inhibition | 12.5 µg/mL | -33%
COc1ccc(-c2cncc(N3CCN(c4ccccc4OC)CC3)n2)cc1OC | target | Cytomegalovirus | - | UL97 kinase | - | inhibition | 1 µM | <50%
CCN(CC)CC1CCc2ccc3ccccc3c2C1O.Cl | culture | Mycobacterium tuberculosis | H37Rv | - | - | MIC | - | 25 µg/mL
COc1ccc(/C=C/c2cc(OC)cc(=O)o2)cc1 | culture | Mycobacterium tuberculosis | H37Rv | - | BACTEC | MIC | - | ≥12.5 µg/mL
O=C(Cc1ccc([N+](=O)[O-])cc1)Nc1ccccc1 | culture | Mycobacterium tuberculosis | H37Rv | - | - | MIC | - | >100 µg/mL
COc1ccc(N2CCN(c3cncc(-c4cccc(C#N)c4)n3)CC2)cc1OC | target | Cytomegalovirus | - | UL97 kinase | - | inhibition | 10 µM | >15%
Oc1cc(Br)ccc1/C=N/Nc1ccccn1 | culture | Mycobacterium tuberculosis | H37Rv | - | BACTEC | inhibition | 12.5 µg/mL | 33%
CCC(C(=O)C(C)CN(C)C)(c1ccccc1)c1ccccc1.Cl | culture | Mycobacterium tuberculosis | H37Rv | - | - | MIC | - | >100 µg/mL
Cc1cccc(-c2cncc(N3CCN(c4cccc(C(F)(F)F)c4)CC3)n2)c1C | target | Cytomegalovirus | - | UL97 kinase | - | IC50 | - | <100 µM
O=C(O)Cc1cccc2c(=O)cc(-c3ccccc3)oc12 | culture | Mycobacterium tuberculosis | H37Rv | - | BACTEC | inhibition | 12.5 µg/mL | 8%
c1ccc(C2CN(c3ccccc3)CCN2c2cnccn2)cc1 | target | Cytomegalovirus | - | UL97 kinase | - | inhibition | 1 µM | <50%
Nc1ccc2nc[nH]c(=O)c2c1 | culture | Mycobacterium tuberculosis | H37Rv | - | - | MIC | - | 100 µg/mL
OCc1ccc(-c2cncc(N3CCN(c4ccccc4F)CC3)n2)cc1 | target | Cytomegalovirus | - | UL97 kinase | - | IC50 | - | <10 µM
O=C(Nc1ccccc1O)c1cccc(S(=O)(=O)Nc2ccc3[nH]c(=S)[nH]c3c2)c1 | culture | Mycobacterium tuberculosis | H37Rv | - | - | MIC | - | >100 µg/mL
CCC(=O)OC[n+]1ccc2c(C)c3[nH]c4ccc(OC)cc4c3c(C)c2c1 | culture | Mycobacterium tuberculosis | H37Rv | - | resazurin | MIC bound | - | <6.25 µg/mL
COc1ccc(-c2cc(C(=O)O)c3c(O)cc4c(S(=O)(=O)[O-])cccc4c3n2)cc1.[Na+] | culture | Mycobacterium tuberculosis | H37Rv | - | - | MIC | - | >100 µg/mL
CCCCCCC(O)C/C=C/CCCCCCc1c(C(=O)OC)[nH]c(=S)[nH]c1=O | culture | Mycobacterium tuberculosis | H37Rv | - | BACTEC | MIC bound | - | >12.5 µg/mL
C=CCc1ccc(OC)c(OC)c1 | culture | Candida parapsilosis | 2383 | - | turbidity | MIC90 | - | 350 µg/mL
O=C(O)C(c1ccccc1)(c1ccccc1)c1ccccc1 | culture | Mycobacterium tuberculosis | H37Rv | - | - | MIC | - | >100 µg/mL
O=[N+]([O-])c1cc2ncccc2c2ncccc12 | culture | Mycobacterium tuberculosis | ETA-R | - | - | MIC | - | >12.5 µg/mL
O=C(O)C(c1ccccc1)c1ccccc1 | culture | Mycobacterium tuberculosis | H37Rv | - | - | MIC | - | >100 µg/mL
COc1ccc(N2CCN(c3cncc(-c4ccccc4Oc4ccccc4)n3)CC2)cc1OC | target | Cytomegalovirus | - | UL97 kinase | - | inhibition | 10 µM | >15%
Fc1ccc(N2CCCCC2)c(NC(=S)c2ccncc2)c1 | host protein | - | - | CK1a1/b | kinase activity | inhibition | 10 µM | 0%
Nc1ccc2c(c1)S(=O)(=O)c1cc(N)ccc1O2 | culture | Mycobacterium tuberculosis | H37Rv | - | - | MIC | - | >100 µg/mL
COc1cccc(-c2cncc(N3CCN(c4ccccc4F)CC3)n2)c1 | target | Cytomegalovirus | - | UL97 kinase | - | IC50 | - | <10 µM
Clc1ccnc2c1ccc1c(Cl)ccnc12 | culture | Mycobacterium tuberculosis | H37Rv | - | BACTEC | MIC bound | - | >12.5 µg/mL
Nc1ccc(C(=O)O)c(O)c1 | culture | Mycobacterium tuberculosis | H37Rv | - | - | MIC | - | 0.8 µg/mL
Cl.N=c1c2ccccc2nc2oc3cc([N+](=O)[O-])ccc3n12 | culture | Mycobacterium tuberculosis | H37Rv | - | BACTEC | MIC bound | - | >12.5 µg/mL
NC(N)=NC(N)=Nc1ccccc1-c1ccccc1.O | culture | Mycobacterium tuberculosis | H37Rv | - | - | MIC | - | >100 µg/mL

Repeating the final 4 entries:

SMILES,test,species,strain,protein,read by,measure,dose,value
Clc1ccnc2c1ccc1c(Cl)ccnc12,culture,Mycobacterium tuberculosis,H37Rv,-,BACTEC,MIC bound,-,>12.5 µg/mL
Nc1ccc(C(=O)O)c(O)c1,culture,Mycobacterium tuberculosis,H37Rv,-,-,MIC,-,0.8 µg/mL
Cl.N=c1c2ccccc2nc2oc3cc([N+](=O)[O-])ccc3n12,culture,Mycobacterium tuberculosis,H37Rv,-,BACTEC,MIC bound,-,>12.5 µg/mL
NC(N)=NC(N)=Nc1ccccc1-c1ccccc1.O,culture,Mycobacterium tuberculosis,H37Rv,-,-,MIC,-,>100 µg/mL